Tests used:
[1] = target: Human SARS Coronavirus Spike Protein (Receptor Binding Domain, His Tag) (Sino 40150-V08B2) (Human SARS Coronavirus, UniProt P59594 306-527); assay: Luminex bead binding, antigen on microspheres, antibody supernatant
[2] = target: Human SARS Coronavirus Spike S1 Subunit Protein (His Tag) (Sino 40150-V08B1) (Human SARS Coronavirus, UniProt P59594 14-667); assay: as above
[3] = target: Human SARS Coronavirus Spike Protein (Receptor Binding Domain, His Tag) (Sino 40150-V08B2) (Human SARS Coronavirus, UniProt P59594 306-527); assay: Luminex bead assay, supernatant on antigen microspheres

B1: mAb10987 (antibody, V domains shown)
VH: QVQLVESGGGVVQPGRSLRLSCAASGFTFSNYAMYWVRQAPGKGLEWVAVISYDGSNKYYADSVKGRFTISRDNSKNTLYLQMNSLRTEDTAVYYCASGSDYGDYLLVYWGQGTLVTVSS
VL: QSALTQPASVSGSPGQSITISCTGTSSDVGGYNYVSWYQQHPGKAPKLMIYDVSKRPSGVSNRFSGSKSGNTASLTISGLQSEDEADYYCNSLTSISTWVFGGGTKLTVLG
MFI [1]: 27 MFI

B2: mAb10970 (antibody, V domains shown)
VH: EVQLVESGGGLVQPGGSLRLSCAASGFTVSSNYMSWVRQAPGKGLEWVSVIYSGGSTYYADSVKGRFTISRDNSKNTLYLQMNRLRADDTAVYYCVRDPVGRYYYGMDVWGQGTTVTVSS
VL: not shown
MFI [2]: 19 MFI

B3: mAb10933 (antibody, V domains shown)
VH: QVQLVESGGGLVKPGGSLRLSCAASGFTFSDYYMSWIRQAPGKGLEWVSYITYSGSTIYYADSVKGRFTISRDNAKSSLYLQMNSLRAEDTAVYYCARDRGTTMVPFDYWGQGTLVTVSS
VL: DIQMTQSPSSLSASVGDRVTITCQASQDITNYLNWYQQKPGKAPKLLIYAASNLETGVPSRFSGSGSGTDFTFTISGLQPEDIATYYCQQYDNLPLTFGGGTKVEIKR
Binding signal (MFI) [3]: 31 MFI

— patent US20220356230A1 (published 2022)
